Compound potency records, mixed from different reports. Data source: NIAID ChemDB in PubChem.

All rows: whole-cell or culture tests; agent: HIV-1; measure: EC50

Lines come from different laboratories, so protocols vary.

smiles | strain | cell line | changes | read by | value
CCc1c(Sc2cc(C)cc(C)c2)n(COCc2ccccc2)c(=O)[nH]c1=O | IIIB TIBO R82913-resistant (RT K103N) | CEM | RT-K103N | syncytia | 0.06 µM
C=CCN1CCN(CC(=C)C)c2c(sc3ccc(OC)cc23)C1=O |  | OM-10.1 |  | p24 | 0.8 µM
CC(C)C1=C2[C@H]3CC[C@@H]4[C@@]5(C)CC[C@H](OC(=O)[C@H]6C[C@@H](C(=O)O)C6(C)C)C(C)(C)[C@@H]5CC[C@@]4(C)[C@]3(C)CC[C@@]2([C@@H](O)CNC(=O)[C@@H]2CCCNC2)CC1=O | 92HT599 | MT-2 |  | p24 / ELISA | <1 µM
C[C@H](Cn1cnc2c(N)ncnc21)OCP(=O)(O)O | Clinical isolate | MT-2 | A62V/V75I/F77L/F116L/Q161M/M184V | recombinant virus assay | 0.0036 µM
Cc1cn([C@H]2C=C[C@@H](CO)O2)c(=O)[nH]c1=O | Nevirapine-resistant | CEM + CEM-SS |  | RT activity | 0.18 µM
CCc1c(Cc2cc(C)cc(C)c2)n(COCCO)c(=O)[nH]c1=O | IIIB | CEM | RT-Y181I | syncytia | 2.5 µM
C[C@@H]1CN(C(=O)c2ccccn2)CCN1C(=O)C(=O)c1c[nH]c2c(F)cccc12 |  | HeLa + HELA CD4+/CCR5 |  | luciferase | <10 µM
CCc1c(Sc2ccccc2)n(COCc2ccccc2)c(=S)[nH]c1=O | IIIB | CEM | RT-Y188H | syncytia | ≥25 µM
O=C(C(=O)N1CCN(C(=O)c2ccccc2)CC1)c1c[nH]c2c(F)ccc(Br)c12 |  | HeLa + HELA CD4+/CCR5 |  | luciferase | <10 µM
CC(C)C1=C2[C@H]3CC[C@@H]4[C@@]5(C)CC[C@H](OC(=O)[C@H]6C[C@@H](C(=O)O)C6(C)C)C(C)(C)[C@@H]5CC[C@@]4(C)[C@]3(C)CC[C@@]2(CC(=O)NCC2CCCC2)CC1=O | 92HT599 | MT-2 |  | p24 / ELISA | <1 µM
Cc1nc2ccccc2c(-c2cc(F)c3c(c2C)CCCO3)c1[C@H](OC(C)(C)C)C(=O)O | NL4-3 | MT-4 | T174I | luminescence | 7.27 µM
O=C(C(=O)N1CCN(C(=O)c2cc(Cl)ccc2S)CC1)c1c[nH]c2cccc(F)c12 |  | HeLa + HELA CD4+/CCR5 |  | luciferase | <10 µM
CCCc1cc(=O)oc2c3c(c4c(c12)OC(C)(C)CC4)O[C@H](C)[C@@H](C)C3=O | BaL | Macrophage + Macrophages |  | cytopathic effect / XTT | 2.19 µM
O=C(CNC(=O)COc1ccccc1)NCc1ccc(C(=O)N2CCCCC2)cc1 | 89BZ167 | PBMC |  | RT activity | 17.7 µM
Cc1nc(CCCCCCC(=O)c2ccccc2)n2nc(NCCCCCCCCCCN)ccc12 | LAI | CEM + CEM TK- |  | RT activity | 5.8 µM
CC(C)C1=C2[C@H]3CC[C@@H]4[C@@]5(C)CC[C@H](OC(=O)[C@H]6C[C@@H](C(=O)O)C6(C)C)C(C)(C)[C@@H]5CC[C@@]4(C)[C@]3(C)CC[C@@]2(CCNCC(F)(F)NC(=O)c2ccc(Cl)cc2)CC1=O | 92HT599 | MT-2 |  | p24 / ELISA | <1 µM
CCO[C@@H]1Cc2cc(C(F)(F)F)ccc2C1N1CCN(C2(C)CCN(C(=O)c3c(C)ncnc3C)CC2)C[C@@H]1C | ADA | PBMC |  | p24 | 0.0005 µM
CC(C)c1c(Sc2ccccc2)n(COCCO)c(=S)[nH]c1=O | IIIB | CEM | RT-Y188H | syncytia | >10 µM
Cc1nc(CCCCCCC(=O)c2ccccc2)n2nc(NCCCCCCCCCCNCc3cn([C@H]4C=C[C@@H](CO)O4)c(=O)[nH]c3=O)ccc12 | LAI | CEM + CEM-SS |  | RT activity | 0.025 µM
CCC(=O)C(=O)N1CCC2(CC1)OCCn1c2nc(C(=O)NCc2ccc(F)cc2)c(O)c1=O | NL4-3 | MT-2 |  | luciferase / reporter gene | 0.001–0.01 µM
COc1ccc2sc3c(c2c1)SCCn1cnnc1-3 |  | OM-10.1 |  | p24 | 2.9 µM
CCN1C[C@H](C)N2C(=C(O)C3C(=O)N4Cc5ccc(F)cc5OC/C=C/CCCS(=O)(=O)N(C)C(=N4)C32)C1=O | LAII(IIIB) | MT-4 |  |  | 2.54 µM
O=C(C(=O)N1CCN(C(=O)c2ccccc2)CC1)c1c[nH]c2c(F)ccc(F)c12 |  | HeLa + HELA CD4+/CCR5 |  | luciferase | <10 µM
Cc1nc(CCCCCCC(=O)c2ccccc2)n2nc(NCCCCCCCCN)ccc12 | IIIB | PBMC |  | RT activity | >10 µM
Nc1cccc(C(=O)N2CCN(C(=O)C(=O)c3c[nH]c4cccc(F)c34)CC2)c1 |  | HeLa + HELA CD4+/CCR5 |  | luciferase | <10 µM
CC(C)C1=C2[C@H]3CC[C@@H]4[C@@]5(C)CC[C@H](OC(=O)[C@H]6C[C@@H](C(=O)O)C6(C)C)C(C)(C)[C@@H]5CC[C@@]4(C)[C@]3(C)CC[C@@]2(CC(=O)NCc2ccc3ccccc3n2)CC1=O | 92HT599 | MT-2 |  | p24 / ELISA | <1 µM
CCN1C[C@H](C)N2C(=C(O)C3C(=O)N4Cc5ccc(F)cc5OCCCCN5CCN(C(=N4)C32)S5(=O)=O)C1=O | LAII(IIIB) | MT-4 |  |  | 0.98 µM
CC(C)c1c(Sc2ccccc2)n(COCc2ccccc2)c(=S)[nH]c1=O | IIIB | CEM | RT-Y188H | syncytia | ≥10 µM
CCOCc1cn([C@H]2C=C[C@@H](CO)O2)c(=O)[nH]c1=O | IIIB | PBMC |  | RT activity | 1.85 µM
O=C1NCCN(Cc2ccccc2)c2c1sc1ccc(F)cc21 |  | OM-10.1 |  | p24 | 0.01 µM
CC1(C)CC=C(c2cn(-c3nccc(C(=O)NC4CCC(N5CC6CCC(C5)O6)CC4)n3)c3ccc(F)c([C@H](OC(C)(C)C)C(=O)O)c23)CC1 | NL4-3 | MT-4 | T124A | luminescence | 0.0058 µM
CN(C)S(=O)(=O)N1CCC2(CC1)OCCn1c2nc(C(=O)NCc2ccc(F)cc2)c(O)c1=O | NL4-3 | MT-2 |  | luciferase / reporter gene | 0.001–0.01 µM
CCN1CCN2C(=C(O)C3C(=O)N4Cc5ccc(F)cc5OCCCCCNC(=O)C(=N4)C32)C1=O | LAII(IIIB) | MT-4 |  |  | 1.49 µM
Cc1ncnn1-c1cc(F)ccc1CNC(=O)c1nc2n(c(=O)c1O)CCOCC21CCN(C(=O)N(C)C)CC1 | NL4-3 | MT-2 |  | luciferase / reporter gene | 0.01–0.1 µM
Cc1nc(CCCCCCC(=O)c2ccccc2)n2nc(Cl)ccc12 | IIIB | MT-4 |  | RT activity | 1.4 µM
CCc1c(Sc2cc(C)cc(C)c2)n(COCCO)c(=O)[nH]c1=O | IIIB | CEM | RT-Y181I | syncytia | 1.4 µM
Cc1ccc(C(=O)NC(C)(C)CNC(=O)C[C@@]23CC[C@]4(C)[C@H](CC[C@@H]5[C@@]6(C)CC[C@H](OC(=O)[C@H]7C[C@@H](C(=O)O)C7(C)C)C(C)(C)[C@@H]6CC[C@]54C)C2=C(C(C)C)C(=O)C3)nc1 | 92HT599 | MT-2 |  | p24 / ELISA | <1 µM
COc1ccc2sc3c(c2c1)N(Cc1ccc([N+](=O)[O-])cc1)CCNC3=O |  | OM-10.1 |  | p24 | 0.02 µM
Nc1nc(=O)n([C@H]2C=C[C@@H](CO)O2)cc1F | BRU | PBMC | RT-M184V | RT activity | <0.08 µM
CC(C)C1=C2[C@H]3CC[C@@H]4[C@@]5(C)CC[C@H](OC(=O)[C@H]6C[C@@H](C(=O)O)C6(C)C)C(C)(C)[C@@H]5CC[C@@]4(C)[C@]3(C)CC[C@@]2(CCNC(=O)c2ncccn2)CC1=O | 92HT599 | MT-2 |  | p24 / ELISA | <1 µM
CN(C)C(=O)N1CCC2(CC1)OCCn1c2nc(C(=O)NCc2ccc(F)cc2-n2cncn2)c(O)c1=O | NL4-3 | MT-2 |  | luciferase / reporter gene | 0.001–0.01 µM
CCN1C[C@H](C)N2C(=C(O)C3C(=O)N4Cc5ccc(F)cc5OCCCC[C@@H](C)S(=O)(=O)N(C)C(=N4)C32)C1=O | LAII(IIIB) | MT-4 |  |  | 379 µM
COc1ccc(CN2CCNC(=O)C3=C2c2cc(OC)ccc2CC3)cc1 |  | OM-10.1 |  | p24 | 0.4 µM
CCc1c(Sc2ccccc2)n(COCc2ccccc2)c(=O)[nH]c1=O | IIIB | CEM |  | syncytia | 0.002 µM
C=C(C)CN1CCN(C)C(=O)c2sc3ccc(OC)cc3c21 |  | OM-10.1 |  | p24 | <0.08 µM
O=C(O)C(=O)N1CCC2(CC1)OCCn1c2nc(C(=O)NCc2ccc(F)cc2)c(O)c1=O | NL4-3 | MT-2 |  | luciferase / reporter gene | ≥0.1 µM
CCc1c(Sc2cc(C)cc(C)c2)n(COCCO)c(=S)[nH]c1=O | IIIB (TIBO 82150) (RT-L100I) | CEM | RT-L100I | syncytia | 0.03 µM
Nc1nc(NC2CC2)c2ncn([C@H]3C=C[C@@H](CO)C3)c2n1 | Clinical isolate | MT-2 | M184V | recombinant virus assay | 0.308 µM
C[C@@H]1CN(C(=O)c2ccccc2)CCN1C(=O)C(=O)c1c[nH]c2c(Br)ccc(F)c12 |  | HeLa + HELA CD4+/CCR5 |  | luciferase | <10 µM
CCN1C[C@H](C)N2C(=C(O)C3C(=O)N4Cc5ccc(F)cc5OC/C=C\CCS(=O)(=O)N(C)C(=N4)C32)C1=O | LAII(IIIB) | MT-4 |  |  | 0.59 µM
CCOCn1c(Sc2cc(C)cc(C)c2)c(CC)c(=O)[nH]c1=S | IIIB | CEM | RT-Y181I | syncytia | 0.57 µM
C[C@@H]1CN(C(=O)c2ccccc2)CCN1C(=O)C(=O)c1c[nH]c2cccc(Br)c12 |  | HeLa + HELA CD4+/CCR5 |  | luciferase | >10 µM

The last 4 rows once more:

smiles,strain,cell line,changes,read by,value
C[C@@H]1CN(C(=O)c2ccccc2)CCN1C(=O)C(=O)c1c[nH]c2c(Br)ccc(F)c12,,HeLa + HELA CD4+/CCR5,,luciferase,<10 µM
CCN1C[C@H](C)N2C(=C(O)C3C(=O)N4Cc5ccc(F)cc5OC/C=C\CCS(=O)(=O)N(C)C(=N4)C32)C1=O,LAII(IIIB),MT-4,,,0.59 µM
CCOCn1c(Sc2cc(C)cc(C)c2)c(CC)c(=O)[nH]c1=S,IIIB,CEM,RT-Y181I,syncytia,0.57 µM
C[C@@H]1CN(C(=O)c2ccccc2)CCN1C(=O)C(=O)c1c[nH]c2cccc(Br)c12,,HeLa + HELA CD4+/CCR5,,luciferase,>10 µM

a–b is a range or a potency band. Blank or dashed fields: not listed here. ECn: concentration that inhibits the pathogen or its effect by n%.